The values below come from US20060002932A1, “Methods and compositions for enhancement of immunity by in vivo depletion of immunosuppressive cell activity” (priority 2004, published 2006).

Chains of the proteins cited; added tags and fusions are not shown. Residues count along the entry.
UniProt P01589, 22-272: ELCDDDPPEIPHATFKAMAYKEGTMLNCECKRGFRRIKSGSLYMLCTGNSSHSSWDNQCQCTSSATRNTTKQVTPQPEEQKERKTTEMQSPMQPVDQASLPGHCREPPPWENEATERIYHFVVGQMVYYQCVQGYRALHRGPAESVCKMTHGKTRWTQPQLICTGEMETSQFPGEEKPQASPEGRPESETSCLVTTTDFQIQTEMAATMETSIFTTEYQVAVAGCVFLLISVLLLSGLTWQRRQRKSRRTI
UniProt P14784, 27-551: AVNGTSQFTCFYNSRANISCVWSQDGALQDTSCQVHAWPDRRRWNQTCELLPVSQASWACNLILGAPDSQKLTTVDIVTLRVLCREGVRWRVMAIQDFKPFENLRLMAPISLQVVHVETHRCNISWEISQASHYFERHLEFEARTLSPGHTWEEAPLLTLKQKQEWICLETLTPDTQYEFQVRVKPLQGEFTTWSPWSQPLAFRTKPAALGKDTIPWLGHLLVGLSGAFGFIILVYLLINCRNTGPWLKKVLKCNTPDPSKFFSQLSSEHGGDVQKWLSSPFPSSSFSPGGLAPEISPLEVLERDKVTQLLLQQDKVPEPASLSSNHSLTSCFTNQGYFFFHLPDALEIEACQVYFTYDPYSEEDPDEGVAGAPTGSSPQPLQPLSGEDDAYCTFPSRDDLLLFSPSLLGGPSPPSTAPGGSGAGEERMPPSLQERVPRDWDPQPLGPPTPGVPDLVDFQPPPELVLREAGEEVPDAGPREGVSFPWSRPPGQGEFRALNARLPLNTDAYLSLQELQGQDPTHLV
UniProt P31785, 23-369: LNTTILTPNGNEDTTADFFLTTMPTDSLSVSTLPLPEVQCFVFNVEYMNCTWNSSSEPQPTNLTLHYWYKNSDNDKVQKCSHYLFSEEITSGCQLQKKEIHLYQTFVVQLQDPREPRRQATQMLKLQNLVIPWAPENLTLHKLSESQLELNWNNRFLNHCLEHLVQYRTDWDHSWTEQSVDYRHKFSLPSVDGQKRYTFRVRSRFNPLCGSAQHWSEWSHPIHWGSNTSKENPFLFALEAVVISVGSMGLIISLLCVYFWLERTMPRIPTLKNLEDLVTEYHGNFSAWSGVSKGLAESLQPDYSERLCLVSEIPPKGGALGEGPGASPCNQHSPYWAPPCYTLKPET

The test system of series [1] is PBMC and regulatory T cells mixed at 1:1 ratio. Particulars: PBMC and Treg 1:1, DAB389IL-2 5 nM, 48 hours.
In series [2] the target is high-affinity IL-2 receptor (Homo sapiens, UniProt P01589+P14784+P31785). To be noted: read-out: dissociation constant; DAB389IL-2 and the high-affinity IL-2 receptor; cited from earlier work.

With denileukin diftitox [DAB389IL-2], the “reduction of cell viability” value in series [1] is reported as “more than 60%”. In series [2], the Kd was 1 pM.
